Pooled drug test results. Numbers come from NIAID ChemDB, via PubChem.

Common to all: tests on isolated targets; species: Hepatitis C virus; target: Nonstructural protein 5B; endpoint: IC50

Rows are shuffled and stem from different studies.

O=C(O)c1ccc(N2C(=O)C(=Cc3ccc(-c4cccc(Cl)c4Cl)o3)SC2=S)cc1 ; value: ≤1 µM
COc1c(-c2ccc3cc(NS(C)(=O)=O)ccc3c2)cc(-n2ccc(=O)[nH]c2=O)cc1C(C)(C)C ; read by: nucleotide incorporation ; strain: GT 3a#2 ; value: 11.9 µM
O=C1NC(=S)SC1=Cc1ccc(-c2cc([N+](=O)[O-])ccc2Cl)o1 ; value: ≤1 µM
COc1ccc(CCC2(C3CCCC3)CC(=O)C(C(=O)Cc3ccccc3)C(=O)O2)c(OC)c1 ; value: 10–50 µM
CNC(=O)c1c(-c2ccc(F)cc2)oc2cc(N(Cc3c(C)noc3C)S(C)(=O)=O)c(OC(C)C)cc12 ; value: ≤0.5 µM
CCOc1ccc(CCC2(C3CCCC3)CC(=O)CC(=O)O2)cc1F ; value: <1 µM
O=C(O)CCN1C(=O)C(=Cc2ccc(C#Cc3ccccc3)s2)SC1=S ; value: ≤1 µM
COc1ccc(OCC2(C3CCCC3)CC(=O)CC(=O)O2)cc1 ; value: >50 µM
CCc1cc2c(C(=O)NC)c(-c3ccc(F)cc3)oc2cc1N(CS(C)(=O)=O)c1cscn1 ; value: ≤0.5 µM
COc1ccc(CCC2(C3CCCC3)CC(=O)C(C(C)=O)C(=O)O2)cc1 ; value: 10–50 µM
CNC(=O)c1c(-c2ccc(F)cc2)oc2cc(N3CCC(O)C3)c(OC(C)C)cc12 ; value: ≤0.5 µM
CCCc1ccc(-c2ccc(C=C3SC(=S)N(CCC(=O)O)C3=O)o2)s1 ; value: ≤1 µM
CNC(=O)c1c(-c2ccc(F)cc2)oc2cc(N(CCN3CCOCC3)S(C)(=O)=O)c(OC(C)C)cc12 ; value: ≤0.5 µM
C[C@@]1(O)[C@H](O)[C@@H](COP(=O)([O-])OP(=O)([O-])OP(=O)([O-])O)O[C@H]1n1cnc2c(N)nc(N)nc21 ; mutations: S96T ; read by: nucleotide incorporation ; strain: GT1b ; value: 2 µM
CNC(=O)c1c(-c2ccc(F)cc2)oc2cc(N(CS(C)(=O)=O)c3cscn3)c(OC)cc12 ; value: ≤0.5 µM
O=C(O)c1ccc(N2C(=O)C(=Cc3ccc(-c4ccc(F)c(F)c4)o3)SC2=S)cc1 ; value: ≤1 µM
CNC(=O)c1c(-c2ccc(F)cc2)oc2cc(N(CS(C)(=O)=O)c3cscn3)c(OC(C)C)cc12 ; value: ≤0.5 µM
O=C(O)CCN1C(=O)C(=Cc2ccc(-c3ccc(Br)cc3)o2)SC1=S ; value: ≤1 µM

The first 2 rows once more:

structure | mutations | read by | strain | value
O=C(O)c1ccc(N2C(=O)C(=Cc3ccc(-c4cccc(Cl)c4Cl)o3)SC2=S)cc1 |  |  |  | ≤1 µM
COc1c(-c2ccc3cc(NS(C)(=O)=O)ccc3c2)cc(-n2ccc(=O)[nH]c2=O)cc1C(C)(C)C |  | nucleotide incorporation | GT 3a#2 | 11.9 µM

a–b is a range or a potency band. ICn: concentration for n% inhibition. An empty or dashed field is not shown.